A mixed list of measured activities; the numbers were collected in NIAID ChemDB.

All rows: growth or infection tests; organism: Candida glabrata

ECn: concentration that inhibits the pathogen or its effect by n%. Blank or dashed fields: not listed here. MIC50, MIC90 and the like: level of inhibition, or share of isolates inhibited. Rows are shuffled and stem from different studies.

compound,strain or isolate,setting,read-out,read by,result
C[C@@H](c1ncncc1F)[C@](O)(Cn1cncn1)c1ccc(F)cc1F,40 isolates,pH 4,MIC,broth dilution,8 µg/mL
CCCCCCCCCCCCCCCC(=O)NC(CCCCN)C(=O)NC(CCCCN)C(N)=O,4849,,MIC,broth dilution,4 µg/mL
O=C(c1ccccc1)C(c1ccccc1)n1cncn1,,,MFC,broth dilution,128 µg/mL
C[C@@H]1CC(=O)N(c2ccccc2)C1=O,CCC 115-2000,,MIC,broth dilution / turbidity,62.5 µg/mL
O/N=C(/COc1cccc(F)c1)c1ccccc1,ATCC 90030,48 h,MIC,broth dilution,>125 µg/mL
CC[C@@H]([C@H](C)O)n1ncn(-c2ccc(N3CCN(c4ccc(OC[C@@H]5CO[C@@](Cn6cncn6)(c6ccc(F)cc6F)C5)cc4)CC3)cc2)c1=O,40 isolates,pH 7,MIC,broth dilution,0.125 µg/mL
CC1CC(=O)N(c2ccc(F)cc2F)C1=O,CCC 115-2000,,MIC,broth dilution / turbidity,125 µg/mL
O=P(O)(O)OP(=O)(O)OP(=O)(O)O,MC369,,MIC,broth dilution,390 µg/mL
Cc1ccc(-c2c3c(N)c4c(nc3nc3c2c(C)nn3-c2ccccc2)CCCCC4)cc1,CCC 115,,MIC100,broth dilution / absorbance,>250 µg/mL
O=C(COc1cccc(Cl)c1)c1ccccc1,ATCC 90030,48 h,MIC,broth dilution,>125 µg/mL
CC(=O)N1CCN(c2ccc(OC[C@H]3CO[C@](Cn4ccnc4)(c4ccc(Cl)cc4Cl)O3)cc2)CC1,40 isolates,pH 5,EC90,broth dilution,>16 µg/mL
C[C@H]1[C@H](O)[C@@H](C)/C=C/C=C/C=C/C=C/C=C/C=C/C=C/[C@H](O[C@@H]2O[C@H](C)[C@@H](O)[C@H](N)[C@@H]2O)C[C@@H]2O[C@](O)(C[C@@H](O)C[C@@H](O)CC[C@H](O)[C@@H](O)C[C@@H](O)CC(=O)O[C@H]1C)C[C@H](O)[C@H]2C(=O)O,MTCC 3019,,MIC100,broth dilution,0.5 µg/mL
COc1ccccc1OC/C(=N/O)c1ccccc1,ATCC 90030,48 h,MIC,broth dilution,>125 µg/mL
O=C(c1ccccc1)C(c1ccccc1)n1ccnc1,,,MFC,broth dilution,256 µg/mL
C[C@@H](c1ncncc1F)[C@](O)(Cn1cncn1)c1ccc(F)cc1F,8655,,MIC,broth dilution,0.5 µg/mL
COc1ccc(C(c2ccc(OC)cc2)n2cncn2)cc1,,,MFC,broth dilution,>256 µg/mL
C[C@@H](c1ncncc1F)[C@](O)(Cn1cncn1)c1ccc(F)cc1F,ATCC 66032,,MIC,broth dilution,1 µg/mL
C[C@H]1[C@H](O)[C@@H](C)/C=C/C=C/C=C/C=C/C=C/C=C/C=C/[C@H](O[C@@H]2O[C@H](C)[C@@H](O)[C@H](N)[C@@H]2O)C[C@@H]2O[C@](O)(C[C@@H](O)C[C@@H](O)CC[C@H](O)[C@@H](O)C[C@@H](O)CC(=O)O[C@H]1C)C[C@H](O)[C@H]2C(=O)O,MTCC 3019,,MIC,absorbance,0.5 µg/mL
C[C@@H](c1ncncc1F)[C@](O)(Cn1cncn1)c1ccc(F)cc1F,,,MIC90,broth dilution,0.25 µg/mL
C[C@@H]1CC(=O)N(Cc2ccccc2)C1=O,CCC 115-2000,,MIC,broth dilution / turbidity,62.5 µg/mL
COc1ccc(OCC(=O)c2ccccc2)cc1,ATCC 90030,24 h,MIC,broth dilution,>125 µg/mL
CCOc1ccc2nc3cc(N=C4NC(=O)/C(=C\c5ccc([N+](=O)[O-])o5)S4)ccc3c(N)c2c1,,,MFC,broth dilution,208 µg/mL
COc1cc(OCC(=O)c2ccccc2)cc(OC)c1OC,ATCC 90030,24 h,MIC,broth dilution,>125 µg/mL
C=CCc1ccc(OC)c(OC)c1,3249,,MIC90,turbidity,345 µg/mL
CCCCCOc1ccc(-c2cc(-c3ccc(C(=O)N[C@H]4C[C@@H](O)[C@@H](O)NC(=O)[C@@H]5[C@@H](O)[C@@H](C)CN5C(=O)[C@H]([C@H](O)CC(N)=O)NC(=O)[C@H]([C@H](O)[C@@H](O)c5ccc(O)c(OS(=O)(=O)O)c5)NC(=O)[C@@H]5C[C@@H](O)CN5C(=O)[C@H]([C@@H](C)O)NC4=O)cc3)no2)cc1,,,MIC50,broth dilution,0.03 µg/mL
CCC(C)CC(C)CCCCCCCCC(=O)N[C@H]1C[C@@H](O)[C@H](NCCN)NC(=O)[C@@H]2[C@@H](O)CCN2C(=O)[C@H]([C@H](O)CCN)NC(=O)[C@H]([C@H](O)[C@@H](O)c2ccc(O)cc2)NC(=O)[C@@H]2C[C@@H](O)CN2C(=O)[C@H]([C@@H](C)O)NC1=O,40 isolates,pH 7,EC90,broth dilution,0.5 µg/mL
CC1CC(=O)N(CCc2ccccc2)C1=O,CCC 115-2000,,MIC,broth dilution / turbidity,125 µg/mL
CC[C@@H]([C@H](C)O)n1ncn(-c2ccc(N3CCN(c4ccc(OC[C@@H]5CO[C@@](Cn6cncn6)(c6ccc(F)cc6F)C5)cc4)CC3)cc2)c1=O,8661,,MIC,broth dilution,1 µg/mL
Cc1ccc(-c2c3c(N)c4c(nc3nc3c2c(C)nn3-c2ccccc2)CCC4)cc1,CCC 115,,MIC80,broth dilution / absorbance,>250 µg/mL
Clc1ccc(C(c2ccccc2)n2nnc3ccccc32)cc1,,,MFC,broth dilution,>256 µg/mL
O=C(COc1cccc(F)c1)c1ccccc1,ATCC 90030,48 h,MIC,broth dilution,>125 µg/mL
Cc1ccc(-c2c3c(N)c4c(nc3nc3c2c(C)nn3-c2ccccc2)CCCC4)cc1,CCC 115,,MIC100,broth dilution / absorbance,>250 µg/mL

Repeating the final 4 entries:

compound | strain or isolate | setting | read-out | read by | result
Cc1ccc(-c2c3c(N)c4c(nc3nc3c2c(C)nn3-c2ccccc2)CCC4)cc1 | CCC 115 |  | MIC80 | broth dilution / absorbance | >250 µg/mL
Clc1ccc(C(c2ccccc2)n2nnc3ccccc32)cc1 |  |  | MFC | broth dilution | >256 µg/mL
O=C(COc1cccc(F)c1)c1ccccc1 | ATCC 90030 | 48 h | MIC | broth dilution | >125 µg/mL
Cc1ccc(-c2c3c(N)c4c(nc3nc3c2c(C)nn3-c2ccccc2)CCCC4)cc1 | CCC 115 |  | MIC100 | broth dilution / absorbance | >250 µg/mL